# Taken from: PubChem BioAssay AID624099 (ICCB-Longwood, 2012)
# Purpose: 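Human genes that papillomavirus E2 requires to repress the HPV18 LCR promoter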 (primary screen)
# System: human C33A cervical carcinoma cells (HPV-negative) stably expressing BPV1 E2 and an HPV18 LCR luciferase reporter
# Reagent: siRNA pool against human genes, 40 nM
# Duration: 72 h
# Measurement: 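Per-well luciferase luminescence, z-scored on each plate against the plate mean and SD with control wells left out, then averaged across three replicate plates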
# Reading the numbers: mean z-score and z-score: higher = stronger reporter signal, weaker E2 silencing
# Hit rule: 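Hit if mean z-score reaches 2 and two or more of three replicate z-scores also reach 2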
# The whole screen tested about 21,000 reagents; this is a part drawn at random. 497 of them (2.4%) count as active. 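Higher z means weaker E2 silencing; only reporter increases were scored, and knock-downs that hurt cell survival may mask genuine repressor factors.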 No sequences are given here.
target gene,mean z-score,"z-score, replicate A","z-score, replicate B","z-score, replicate C",Outcome
HCAR3 (hydroxycarboxylic acid receptor 3),-1.25,-1.35,-1.34,-1.05,inactive
NIPSNAP2 (nipsnap homolog 2),0.53,0.44,0.47,0.68,inactive
LOC401704 (retired record),-0.68,-0.76,-0.55,-0.74,inactive
RSAD1 (radical S-adenosyl methionine domain containing 1),0.07,-0.11,0.37,-0.06,inactive
TEX38 (testis expressed 38),0.18,0.19,0.26,0.1,inactive
"RAB7B (RAB7B, member RAS oncogene family)",1.02,0.95,0.99,1.12,inactive
TRDMT1 (tRNA aspartic acid methyltransferase 1),-0.56,-0.42,-0.53,-0.74,inactive
MRPS26 (mitochondrial ribosomal protein S26),-0.66,-1.11,-0.8,-0.08,inactive
PKD2L2,0.63,0.55,0.63,0.71,inactive
H19 (H19 imprinted maternally expressed transcript),0,0,-0.28,0.27,inactive
BPIFB2 (BPI fold containing family B member 2),-0.12,-0.39,0.21,-0.18,inactive
LPIN3 (lipin 3),-2.57,-2.48,-2.81,-2.43,inactive
LOC388131 (retired record),-0.8,-0.92,-0.6,-0.86,inactive
UCN (urocortin),-1.43,-1.51,-1.45,-1.32,inactive
"RAB1A (RAB1A, member RAS oncogene family)",1.73,2,1.62,1.56,inactive
MEPCE (methylphosphate capping enzyme),0.07,-0.05,0.3,-0.05,inactive
ABTB3 (ankyrin repeat and BTB domain containing 3),-0.42,-0.52,-0.52,-0.23,inactive
FCRL4 (Fc receptor like 4),1.48,1.16,1.52,1.77,inactive
"TEX14BP (testis expressed 14B, pseudogene)",-1.28,-0.67,-1.99,-1.17,inactive
DBNL (drebrin like),0.58,0.86,0.4,0.47,inactive
CAMKK1 (calcium/calmodulin dependent protein kinase kinase 1),-0.64,-0.55,-0.86,-0.5,inactive
CDC73 (cell division cycle 73),0.07,0,0,0.21,inactive

4 entries from above, sorted by “z-score, replicate B”, low to high.
target gene,mean z-score,"z-score, replicate A","z-score, replicate B","z-score, replicate C",Outcome
"TEX14BP (testis expressed 14B, pseudogene)",-1.28,-0.67,-1.99,-1.17,inactive
CAMKK1 (calcium/calmodulin dependent protein kinase kinase 1),-0.64,-0.55,-0.86,-0.5,inactive
DBNL (drebrin like),0.58,0.86,0.4,0.47,inactive
FCRL4 (Fc receptor like 4),1.48,1.16,1.52,1.77,inactive

The listing continues:
target gene,mean z-score,"z-score, replicate A","z-score, replicate B","z-score, replicate C",Outcome
CSF1R (colony stimulating factor 1 receptor),-0.89,0.03,-1.73,-0.97,inactive
TOM1 (target of myb1 membrane trafficking protein),0.79,0.81,0.72,0.83,inactive
LACRT (lacritin),0.5,0.35,0.63,0.52,inactive
UBE3D (ubiquitin protein ligase E3D),-0.03,-0.24,-0.02,0.17,inactive
SARM1 (sterile alpha and TIR motif containing 1),-0.96,-0.62,-1.33,-0.95,inactive
CRLS1 (cardiolipin synthase 1),0.52,0.43,0.59,0.54,inactive
CKAP2 (cytoskeleton associated protein 2),0.27,-0.08,0.16,0.73,inactive
RMND5A (required for meiotic nuclear division 5 homolog A),-0.31,-0.15,-0.87,0.08,inactive
TBC1D2B (TBC1 domain family member 2B),0.3,0.63,0.04,0.24,inactive
BHLHA9 (basic helix-loop-helix family member a9),-0.84,-0.81,-0.67,-1.04,inactive
GGT1 (gamma-glutamyltransferase 1),-1.09,-0.62,-1.15,-1.49,inactive
ANKRD33 (ankyrin repeat domain 33),0.66,0.72,0.62,0.66,inactive
SPAG4 (sperm associated antigen 4),1.31,1.44,1.22,1.27,inactive
EPO (erythropoietin),-0.25,-0.24,-0.23,-0.27,inactive
H2AC8 (H2A clustered histone 8),0.22,0.54,0.16,-0.04,inactive
SCN3A (sodium voltage-gated channel alpha subunit 3),0.94,1.1,1.09,0.64,inactive
TRDN (triadin),-0.51,-0.62,-0.55,-0.35,inactive
